A mixed list of measured activities; the numbers were collected in NIAID ChemDB.

Common to all: whole-cell or culture tests

Inhibition is in % at the dose shown (toxicity tests: loss of growth or viability). MIC50, MIC90 and the like: level of inhibition, or share of isolates inhibited. Lines come from different laboratories, so protocols vary. a–b is a range or a potency band. ECn: concentration that inhibits the pathogen or its effect by n%. An empty or dashed field is not shown.

SMILES	organism	strain	cell line	method	conditions	measure	tested at	value
Cc1nc(NCCCCNc2ccnc3cc(Cl)ccc23)nc(-c2ccccc2)c1C(=O)OC(C)C	Cryptococcus neoformans	F-10				MIC99		4 µg/mL
CN[C@H]1CC[C@@H](c2ccc(Cl)c(Cl)c2)c2ccccc21	Cryptococcus neoformans	Bt31		broth dilution		MIC90		4 µg/mL
C=CCc1ccc(OC)c(OC)c1	Candida krusei	191		turbidity		MIC90		350 µg/mL
NC(=S)Nc1cccc(OCCCCc2ccccc2)c1	Hepatitis C virus		Ava5-EG(delta4AB)SEAP	reporter gene / fluorescence		EC50		0.001–1 µM
NC(=NC1CCCC1)c1ccc(-c2ccc(-c3ccc(C(N)=NC4CCCC4)cc3)o2)cc1	Candida albicans	Isolate 2370 fluconazole-resistant				MFC		25 µg/mL
O=C1C(c2[nH]c3ccc(S(=O)(=O)O)cc3c2O)=Nc2ccc(S(=O)(=O)O)cc21	Adenovirus	TYPE 3	Human embryonic lung cells	cytopathic effect		inhibition	50 µg/mL	0%
O=C(NCc1ccccc1)c1c2n(c(=O)n1-c1ccc(F)cc1)CCN(C(=O)c1ccc(Br)c(Cl)c1)C2	Hepatitis B virus		HepG2.117	PCR		EC50		0.5–5 µM
CCc1cn([C@@H]2O[C@H](CO)[C@@H](O)[C@@H]2O)c(=O)[nH]c1=O	Varicella zoster virus	KANNO	HELF	plaque count		inhibition	1000 µg/mL	54%
NC(=S)Nc1cccc(OCCCCCCc2cccc3ccccc23)c1	Hepatitis C virus		Ava5-EG(delta4AB)SEAP	reporter gene / fluorescence		EC50		0.001–1 µM
CCOC(=O)/C=C/[C@H](C[C@@H]1CCNC1=O)NC(=O)[C@@H](CC(=O)[C@@H](NC(=O)c1cc(C)on1)C(C)C)Cc1ccc(F)cc1	Rhinovirus	Isolate 22	OHIO HELA-I	cytopathic effect / visual reading		EC50		<0.01 µg/mL
NC(=S)Nc1cccc(OCCCCCOc2ccc(-c3ccoc3)cc2)c1	Hepatitis C virus		Ava5-EG(delta4AB)SEAP	reporter gene / fluorescence		EC50		0.001–1 µM
Oc1ccccc1N=Cc1ccc(O)c(O)c1O	Cryptococcus gattii	547/OTTI-97-PI-10				MIC99		22.6 µg/mL
Fc1ccc2oc(=S)n(-c3ccccc3)c(=S)c2c1	Mycobacterium kansasii	6509/96			14 d	MIC		1 µM
CCO/N=C/c1ccc(OCCC2CCN(c3ccc(Cl)nn3)CC2)cc1	Rhinovirus	1059 (ICAM-1 receptor group 14)	KB	neutral red		EC50		0.052 µM
OC[C@H]1O[C@@H](n2c(Br)nc3cc(Cl)c(Cl)cc32)[C@H](O)[C@@H]1O	Human cytomegalovirus	D10 (D341E)		virus yield		EC95		2 µM
Oc1ccccc1N=Cc1cccc(O)c1O	Cryptococcus neoformans	VM-MCMMPI				MIC99		4 µg/mL
NC(=S)Nc1cccc(OCCCCCCCOc2cccc3ccccc23)c1	Hepatitis C virus		Ava5-EG(delta4AB)SEAP	reporter gene / fluorescence		EC50		0.001–1 µM
C[C@@H]1Cn2c(c(C(=O)NCc3ccccc3-c3ncccn3)n(-c3ccc(OC4CC4)cc3)c2=O)CN1C(=O)c1ccc(Br)c(C#N)c1	Hepatitis B virus		HepG2.117	PCR		EC50		0.1–0.5 µM
Oc1ccccc1C=Nc1ccccc1O	Cryptococcus neoformans	ATCC 24067				MIC99		5.7 µg/mL
O=S(=O)([O-])c1cccc(O)c1	Herpes simplex virus		Human amnion AV3 cells	cytopathic effect		inhibition	10 µg/mL	10%
O=c1[nH]c(=O)n([C@H]2C[C@H](O)[C@@H](CO)O2)cc1/C=C/Br	Varicella zoster virus	OKA	HELF	plaque count		inhibition	0.1 µg/mL	10%
C[C@@H](c1ncncc1F)[C@](O)(Cn1cncn1)c1ccc(F)cc1F	Cryptococcus gattii	CBS 11545		broth dilution		MIC		0.25 µg/mL
S=c1oc2ccc(Br)cc2c(=S)n1-c1ccccc1	Mycobacterium kansasii	6509/96			14 d	MIC		2 µM
CCC(CC)[C@H](NC(C)=O)[C@@H]1[C@H](O)[C@@H](C(=O)O)C[C@H]1N=C(N)N	Influenza B virus	Harbin/07/94	MDCK			EC50		0.12 µM
O=C(Nc1c(S(=O)(=O)[O-])cc2cc(S(=O)(=O)[O-])cc(O)c2c1O)c1ccccc1	Adenovirus	TYPE 3	Human amnion AV3 cells	cytopathic effect		inhibition	5 µg/mL	60%
O=C(c1ccc(Br)c(Cl)c1)N1CCn2c(c3n(c2=O)C[C@@H](CO)CN(Cc2ccccc2)C3=O)C1	Hepatitis B virus		HepG2.117	PCR		EC50		0.1–0.5 µM
Nc1nc2c(ncn2C=C2CC2CO)c(=O)[nH]1	Human cytomegalovirus	VR5406 (ganciclovir-resistant)		plaque count		EC90		4.9 µM
Cn1cc(C(=O)NCc2ccc(Cl)cc2)c(=O)c2cc(CN3CCOCC3)ccc21	Varicella zoster virus	Human zoster isolate	HFF	plaque count		inhibition	2 µM	90%
CO[C@H]1/C=C/O[C@@]2(C)Oc3c(C)c(O)c4c(O)c(c(/C=N/N5CCN(C6CCCC6)CC5)c(O)c4c3C2=O)NC(=O)/C(C)=C\C=C\[C@H](C)[C@H](O)[C@@H](C)[C@@H](O)[C@@H](C)[C@H](OC(C)=O)[C@@H]1C	Mycobacterium avium intracellulare	74				MIC		≤0.125 µg/mL
Fc1ccc2oc(=S)n(-c3cccc(Cl)c3)c(=S)c2c1	Mycobacterium kansasii	6509/96			21 d	MIC		2 µM
Oc1ccccc1N=Cc1ccccc1	Cryptococcus spp.	28957		broth dilution		MIC		8 µg/mL
CCCC(CCC)C(NC(C)=O)C1CC(C(=O)O)CC1N=C(N)N	Influenza B virus	Panama/45/90	MDCK			EC50		1.6 µM
O=c1[nH]c(=O)n([C@H]2C[C@H](O)[C@@H](CO)O2)cc1I	Varicella zoster virus	Ohtomo	HELF	plaque count		inhibition	1 µg/mL	97%
Cc1ccc2oc(=O)n(-c3ccc(Cl)cc3)c(=S)c2c1	Mycobacterium kansasii	6509/96			14 d	MIC		2 µM
Nc1c(S(=O)(=O)[O-])cc2cc(S(=O)(=O)[O-])ccc2c1O	Rhinovirus		Human embryonic lung cells	cytopathic effect		inhibition	5 µg/mL	55%
C/C=C\[C@@H]1C[C@H](C(=O)O)N[C@H]1[C@@H](NC(C)=O)[C@](C)(CCC)OC	Influenza B virus	HONG KONG/5/72	MDCK	plaque count		EC50		0.0141 µM
O=C(Nc1ccc(S(=O)(=O)[O-])c2cccc(S(=O)(=O)[O-])c12)c1ccccc1	Adenovirus	TYPE 3	Human amnion AV3 cells	cytopathic effect		inhibition	50 µg/mL	0%
O=c1[nH]c(=O)n([C@@H]2O[C@H](CO)[C@@H](O)[C@@H]2O)cc1/C=C/Br	Varicella zoster virus	YS	HELF	plaque count		inhibition	0.0001 µg/mL	0%
CCOC(=O)c1c(C)nc(NCCCCNc2ccnc3cc(Cl)ccc23)nc1-c1ccc(F)cc1	Cryptococcus gattii	LMM 818				MIC99		11.3 µg/mL
C=C/C(C)=C/[C@@]1(C)SC(=O)C(C)=C1O	Escherichia coli	UB1005/PBR322				MIC		150 µM
CCC(CC)[C@H](NC(C)=O)[C@@H]1C[C@@H](C(=O)O)C[C@H]1N=C(N)N	Influenza A virus	H1N1 A/Bayern/07/95	MDCK			EC50		0.64 µM
NC(=S)Nc1cccc(OCCCCCOc2ccccn2)c1	Hepatitis C virus		Ava5-EG(delta4AB)SEAP	reporter gene / fluorescence		EC50		0.001–1 µM
Cc1ccnn1-c1ccc(-n2c(C(=O)NCc3ccccc3)c3n(c2=O)CCN(C(=O)c2ccc(Br)c(Cl)c2)C3)cc1	Hepatitis B virus		HepG2.117	PCR		EC50		0.5–5 µM
O=S(=O)(O)c1cc(O)c2c(O)c(N=Nc3ccccc3)c(S(=O)(=O)O)cc2c1	Adenovirus	TYPE 3	Human embryonic lung cells	cytopathic effect		inhibition	5 µg/mL	10%
O=C(NCc1ccc(Cl)cc1)c1c[nH]c2ccc(CCCO)cc2c1=O	Varicella zoster virus	KLE		plaque count		EC50		0.1 µM
CCC(CC)[C@H](NC(C)=O)[C@@H]1[C@H](O)[C@@H](C(=O)O)C[C@H]1N=C(N)N	Influenza A virus	H1N1 A/PR/8/34	MDCK			EC50		1.5 µM